Here are results for two compounds from US9975848B2, “Inhibitors of HIV-1 entry and methods of use thereof” (priority 2014, dated 2018).

For one experiment, the system named is JR-FL. In words: Infection by single-round luciferase viruses, HIV-1 JR-FL envelope. Type of experiment: cell-based. To be noted: read-out: JR-FL; recombinant luciferase virus, Cf2Th-CCR5-CD4 target cells, 48 h; tested form: bis-trifluoroacetate (by analogy with th).
The subject of the next experiment is A-MLV. The experiment in a line: Infection by single-round luciferase viruses, control A-MLV envelope. Type of experiment: cell-based, amphotropic murine leukemia virus. To be noted: read-out: A-MLV; control virus, Cf2Th-CCR5-CD4 target cells, 48 h; tested form: bis-trifluoroacetate (by analogy with th).
The next experiment deals with AD8. The experiment in a line: Infection by single-round luciferase viruses, HIV-1 AD8 envelope. The experiment is classed as cell-based. To be noted: read-out: AD8; recombinant luciferase virus, Cf2Th-CCR5-CD4 target cells, 48 h; tested form: bis-trifluoroacetate (by analogy with th).

Regarding `CNCc1ccc2c(c1)C[C@@H](CNC(=N)N)[C@@H]2NC(=O)C(=O)Nc1ccc(Cl)c(F)c1`, the IC50 with JR-FL and in the experiment with A-MLV was > 100 µM each time.

As for `CNCc1ccc2c(c1)[C@@H](NC(=O)C(=O)Nc1ccc(Cl)c(F)c1)[C@H](CNC(=N)N)C2`, the IC50 in the experiment on JR-FL, with AD8 and in the experiment with A-MLV was > 100 µM each time.
